Measured values from several laboratories, pooled; numbers as filed in NIAID ChemDB.

Shared fields: cytotoxicity tests; cell line: KB; endpoint: CC50

Blank or dashed fields: not listed here. CCn: concentration that lowers growth or viability of the cells by n%. Neighbouring rows are from separate reports.

smiles | read by | value
Cc1cc(=O)[nH]c2c1ccc1ncc(C(=O)O[C@@H]3CC4CCC3(C)C4(C)C)c(C)c12 | - | 5 µg/mL
COc1c(C)c(C)c2[nH]c3ccc(Cc4c(C)c(OC)c(O)c5c4[nH]c4ccccc45)cc3c2c1O | resazurin | 36.8 µg/mL
CN(C)c1nc2cc(Cl)c(Cl)cc2n1COCCO | - | >100 µM
OCC(O)COCc1c(Cl)nc2cc(Cl)c(Cl)cn12 | - | >100 µM
COc1ccc(N2C(=O)CCNC2=S)cc1 | - | >1 µg/mL
OC[C@H]1O[C@@H](n2c(Br)nc3cc(Cl)c(Cl)cc32)[C@H](O)[C@@H]1O | - | >100 µM
C/C(=C\C[C@H](O)[C@@H](C)[C@H]1CC[C@@]2(C)C3=C(CC[C@]12C)[C@@]1(C)CCC(=O)C(C)(C)C1CC3)C(=O)O | resazurin | 19.99 µg/mL
S=c1[nH]c2c(c(=S)[nH]1)C1=C(CCC/C1=C\c1ccncc1)C(c1ccncc1)S2 | MTT | 13.7 µM
OC[C@H]1O[C@@H](n2c(Cl)nc3cc(Cl)c(Cl)cc32)[C@H](O)[C@@H]1O | - | 210 µM
COC(=O)c1nnn([C@@H]2C(=O)N(c3ccc(Cl)cc3)[C@@H]2/C=C/c2ccccc2)c1C(=O)OC | - | 145 µM
O=P1(O)OCC2O[C@@H](n3cnc4c(NO)ncnc43)[C@H](O)C2O1 | - | ≥3.2 µg/mL
Nc1nc2c(Cl)c(Cl)ccc2n1COC(CO)CO | - | >100 µM
COC1=Cc2c(cc(OC3=C4C(=CC(=O)C4(C)C)c4cc(OC)c(C)cc4C3=O)c3cc(C)c(OC)cc23)C(C)(C)C1=O | absorbance | >10 µM
O[C@@H]1[C@H](O)[C@@H](CBr)O[C@H]1n1c(Cl)nc2cc(Cl)c(Cl)cc21 | - | 90 µM
Nc1nc2c(ncn2COC(CO)CO)c(=O)[nH]1 | - | >100 µM
C[C@H]1O[C@H](n2c(Br)nc3cc(Cl)c(Cl)cc32)[C@@H](O)[C@H]1O | - | >100 µM
O=C1[C@@H](n2cc(-c3ccccc3)nn2)[C@@H](/C=C/c2ccccc2)N1c1ccc(Cl)cc1 | - | 84.17 µM
Nc1nc(N)c2cc3c(nc2n1)CCc1ccccc1-3 | MTT | 9.5 µM
COc1c(O)c2c(c(O)c1CCOC(C)=O)CCC(OC)C2=O | - | 0.028 µg/mL
CCO/N=C/c1ccc(OCCC2CCN(c3ccc(Cl)nn3)CC2)cc1 | - | 7.465 µM
OC[C@H]1O[C@@H](n2c(Cl)nc3cc(Cl)c(Cl)cc32)[C@H](O)[C@@H]1O | - | 200 µM
OCC(CO)OCn1c(Cl)nc2cc(Cl)c(Cl)cc21 | - | >100 µM
O=C1[C@@H](n2cc(-c3ccccc3)nn2)[C@@H](/C=C/c2ccccc2)N1C1CCCCC1 | - | 8.36 µM
C=C1[C@H](O)[C@@H](CO)S[C@@H]1n1cc(CCO)c(=O)[nH]c1=O | MTT | >100 µg/mL
CN1N=C(N)c2cn([C@@H]3O[C@H](CO)[C@@H](O)[C@H]3O)c3nc(-c4ccccc4)nc1c23 | - | >100 µM
CCCOc1ccc(N2C(=O)CCNC2=S)cc1 | - | >1 µg/mL
COc1ccc2[nH]c3c(C)c(C)c(OC)c(O)c3c2c1 | resazurin | 21.4 µg/mL
CC(=O)O[C@@H]1[C@H](OC(C)=O)[C@@H](CCl)O[C@H]1n1c(Cl)nc2cc(Cl)c(Cl)cc21 | - | 90 µM
C[C@@]1(O)[C@H](O)[C@@H](COP(=O)(O)OP(=O)(O)OP(=O)(O)O)O[C@H]1n1ccc2c(N)ncnc21 | - | >100 µM
OC[C@H]1O[C@@H](n2c(Br)nc3cc(Cl)c(Cl)cc32)[C@H](O)[C@@H]1O | - | >100 µM
OCCOCn1c(Br)nc2cc(Cl)c(Cl)cc21 | - | >100 µM
OC[C@H]1O[C@@H](n2c(Cl)nc3cc(Cl)c(Cl)cc32)[C@H](O)[C@@H]1O | - | 210 µM
CC1(C)CCC[C@]2(C)[C@H]3C[C@@H](C4=CCOC4=O)CC3=CC[C@@H]12 | absorbance | 20.2 µM
CCCCOc1ccc(N2C(=O)CCNC2=S)cc1 | - | >1 µg/mL
OCCSCc1c(Cl)nc2cc(Cl)c(Cl)cn12 | - | >100 µM
C=C1[C@H](O)[C@@H](CO)S[C@@H]1n1cc(CC)c(=O)[nH]c1=O | MTT | >100 µg/mL
O=C(CCCCCCCCc1ccccc1)c1c(O)cc(O)cc1O | resazurin | >20 µg/mL
O[C@@H]1[C@H](O)CO[C@H]1n1c(Br)nc2cc(Cl)c(Cl)cc21 | - | 50 µM
Nc1nc2c(Cl)cc(Cl)cc2n1COCCO | - | >100 µM
CC(C)Nc1nc2cc(Cl)c(Cl)cc2n1[C@@H]1O[C@@H](CO)[C@@H](O)[C@H]1O | - | >100 µM
O=C1CCNC(=S)N1c1ccccc1 | - | >1 µg/mL
COCCOCn1cc(C(N)=S)c2c(N)ncnc21 | - | >100 µM
COc1cccc2c1C(=O)c1ccc3cc(C)cc(O)c3c1C2=O | resazurin | 26.5 µM
CN1N=C(N)c2cn([C@@H]3O[C@H](COP(=O)(O)O)[C@@H](O)[C@H]3O)c3ncnc1c23 | - | 10 µM
CC(=O)O[C@@H](C/C=C(\C)C(=O)O)[C@@H](C)[C@H]1CC[C@@]2(C)C3=C(CC[C@]12C)[C@@]1(C)CC[C@@H](O)C(C)(C)C1CC3 | resazurin | 31.55 µg/mL
Cc1nc2c3c(cn([C@@H]4O[C@H](CO)[C@@H](O)[C@H]4O)c3n1)C(N)=NN2C | - | >100 µM
N#Cc1c(N)c2c3c([nH]c2[nH]c1=O)SC(c1ccncc1)C1=C3/C(=C/c2ccncc2)CCC1 | MTT | 13.9 µM
OCC(CO)OCn1c(=S)[nH]c2c(Cl)c(Cl)ccc21 | - | >100 µM
O[C@@H]1[C@H](O)CO[C@H]1c1c(Cl)nc2cc(Cl)c(Cl)cn12 | - | >100 µM
CCO/C(C)=N\C1=C(C#N)C2=C(CCC/C2=C\c2ccncc2)C(c2ccncc2)S1 | MTT | 44.6 µM
Nc1ncnc2c1ncn2C=C1CC1CO | - | ~80 µM
OCCOCn1c(Br)nc2c(Cl)c(Cl)ccc21 | - | >100 µM
C=C1[C@H](O)[C@@H](CO)S[C@@H]1n1cc(I)c(=O)[nH]c1=O | MTT | >100 µg/mL
CCOC(=O)/C(N=Nc1ccc(C(=O)N/N=C\c2ccc(F)cc2)cc1)=C(\C)O | - | >20 µg/mL
C=C1[C@H](n2cc(/C=C/Br)c(=O)[nH]c2=O)S[C@H](CO)[C@H]1O | MTT | >100 µg/mL
CC(=O)O[C@@H]1[C@H](OC(C)=O)[C@@H](CF)O[C@H]1n1c(Cl)nc2cc(Cl)c(Cl)cc21 | - | 100 µM
CC(=O)O[C@@H](C/C=C(\C)C(=O)O)[C@@H](C)[C@H]1CC[C@@]2(C)C3=C(CC[C@]12C)[C@@]1(C)CCC(=O)C(C)(C)C1CC3 | resazurin | 34.69 µg/mL
COc1c(C)c(C)c2[nH]c3ccccc3c2c1O | resazurin | 8.6 µg/mL
Nc1nc2c(ncn2COC(CO)CO)c(=O)[nH]1 | - | >100 µM
C=C1[C@H](n2cc(I)c(=O)[nH]c2=O)S[C@H](CO)[C@H]1O | MTT | >100 µg/mL
OC[C@H]1O[C@@H](n2c(Cl)nc3cc(Cl)c(Cl)cc32)[C@H](O)[C@@H]1O | - | 210 µM
COc1ccc(Cn2cc(C(N)=S)c3c(N)ncnc32)cc1 | - | 36 µM
CCSCc1c(Cl)nc2cc(Cl)c(Cl)cn12 | - | >100 µM
C=C1[C@H](n2cc(CCO)c(=O)[nH]c2=O)S[C@H](CO)[C@H]1O | MTT | >100 µg/mL